The results in this text go back to patent publication US20130102493A1, “GENE EXPRESSION ANALYSES FOR CHARACTERIZING AND IDENTIFYING GENOTOXIC COMPOUNDS” (MERCK PATENT GESELLSCHAFT MIT BESCHRANKTER HAFTUNG, priority 2010, published 2013).

Data set [1] concerns HepG2 cells.
For data set [2], the system named is HepG2 cells. This is another data set of the same source.

Regarding aflatoxin B1 [AFB1], the Categorization result in the data set on HepG2 cells [1] is “non-genotoxic”. Moreover, the “regulation of the 91 genes” value with HepG2 cells [2] was “did not change”.
